PubChem BioAssay AID504761 – Drosophila RNAi Screening Center – 2011

Test: 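Fly genes whose silencing reduces dengue virus type 2 infection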 (primary screen)
System: D.Mel-2 cells from Drosophila
Knock-down reagent: long dsRNA against Drosophila genes
Challenge: infection with dengue virus type 2; dose and infection time not stated
Detection: 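Per well on two replicate plates, imaging gave the percent of cells positive for viral envelope protein, ranked by infection, and a nuclear count of cells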
Direction: infection score: higher = more virus-infected cells; cell count: higher = more cells in the well
Active means: 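Low infection ranks in the two replicates (chance level up to 0.065) followed by a retest with a 1.5-fold or larger significant decrease, p below 0.05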
Meaning of the calls: active = confirmed: knock-down lowers infection; inactive = not picked or not confirmed
In all, the deposit lists about 22,000 reagents; below is a random part of those that have a named target and a result. Over the whole deposit, 116 (0.52%) were called active. 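Calls depend on retest data that are not deposited; infection was ranked per plate without normalising between plates; the unit of the infection score is not given.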 Raw values are not corrected between plates. Not stated in the record: the amount of reagent, the time to read-out.

| Target gene | amplicon | infection score, replicate 1 | infection score, replicate 2 | cell count, replicate 1 | cell count, replicate 2 | Outcome |
| --- | --- | --- | --- | --- | --- | --- |
| bab2 (GeneID 44254) | DRSC08150 | 2.34 | 1.67 | 5721 | 6339 | inactive |
| bab2 (GeneID 44254) | DRSC26326 | 7.1 | 13.6 | 4915 | 6512 | inactive |
| tun (GeneID 36743) | DRSC05592 | 2.38 | 2.31 | 6314 | 6027 | inactive |
| tun (GeneID 36743) | DRSC07127 | 16.7 | 14.6 | 5569 | 6587 | inactive |
| ss (GeneID 41988) | DRSC17069 | 5.45 | 10.7 | 6133 | 5919 | inactive |
| E2f1 (GeneID 42550) | DRSC16655 | 2.16 | 2.25 | 3988 | 3994 | inactive |
| E2f1 (GeneID 42550) | DRSC29572 | 7.1 | 10.8 | 902 | 5710 | inactive |
| CG3223 (GeneID 40947) | DRSC15468 | 4.52 | 4.9 | 5997 | 6373 | inactive |
| CG3223 (GeneID 40947) | DRSC28290 | 19.6 | 13.5 | 5319 | 4688 | inactive |
| CG16799 (GeneID 37340) | DRSC06626 | 3.22 | 2.08 | 6024 | 6397 | inactive |
| CG16799 (GeneID 37340) | DRSC21553 | 0.99 | 11.6 | 5882 | 6387 | inactive |
| Neu2 (GeneID 40375) | DRSC11819 | 7.7 | 2.1 | 6353 | 6477 | inactive |
| Neu2 (GeneID 40375) | DRSC26795 | 9.06 | 2.26 | 6555 | 6535 | inactive |
| CG30373 (GeneID 246573) | DRSC05081 | 0.97 | 0.37 | 6073 | 5869 | inactive |
| CG30373 (GeneID 246573) | DRSC29668 | 1.12 | – | 534 | 317 | inactive |
| aos (GeneID 39833) | DRSC11323 | 1.47 | 0.73 | 5699 | 6310 | inactive |
| superdeath (GeneID 43444) | DRSC14868 | 7.48 | 0.96 | 6830 | 6865 | inactive |
| superdeath (GeneID 43444) | DRSC24146 | 8.58 | 3.97 | 6541 | 6377 | inactive |
| CG14615 (GeneID 33129) | DRSC20627 | 9.78 | 1.83 | 5703 | 5842 | inactive |
| Achl (GeneID 36605) | DRSC06665 | 4.65 | 9.66 | 6758 | 6375 | inactive |
| Achl (GeneID 36605) | DRSC29366 | 22.3 | 21.3 | 5500 | 5494 | inactive |
| Cyp311a1 (GeneID 32170) | DRSC20239 | 1.45 | 3.68 | 6618 | 6848 | inactive |
| Cyp311a1 (GeneID 32170) | DRSC27062 | 14.6 | 5.14 | 6138 | 6853 | inactive |
